Results: PMC4488513
For at least one entry, the source does not settle the construct or the ends of the probe. For part of these data: At least one verdict rests on a figure or table, not on a statement of the authors.

How the values were obtained:
Test in all cases: EMSA
[1] = molecular target: rCmeR-IK C69S,C166S,T6I,E159K (Campylobacter jejuni (mutations of isolate M63885)) (UniProt Q7B8P6); conditions: 60-180 ng protein, similar to rCmeRSS; recombinant protein; residues 1-210; protein details: N-terminal 6xHis (pQE30); label: DIG-11-ddUTP 3' end; probe letters rebuilt from the primers and the genome
[2] = molecular target: rCmeR-R C69S,C166S,P183R (Campylobacter jejuni (mutation of isolate CT9:7)) (UniProt Q7B8P6); conditions: 60-180 ng protein, similar to rCmeRSS; recombinant protein; residues 1-210; protein details: N-terminal 6xHis (pQE30); label: DIG-11-ddUTP 3' end; probe letters rebuilt from the primers and the genome
[3] = molecular target: rCmeRSS C69S,C166S (Campylobacter jejuni) (UniProt Q7B8P6); conditions: 60-180 ng protein, 0.05 pmol probe; recombinant protein; residues 1-210; protein details: N-terminal 6xHis (pQE30); label: DIG-11-ddUTP 3' end; probe letters rebuilt from the primers and the genome

Measured: binding result

GCACAACACCTAAAGCTAAAATAGTATTTTTTTGAAATAATTTCATGGTTTTGCCTTGAAAAATTAAATTAAAAATTGTAATTTTTATTACAAAAATTTTTGGCTAATTATATCTTAATTTTGGTTAATAAAATTATTTTTTAAGCTTTGGAGCTATTGATTCCATTTAG (double strand) [11168 cmeABC promoter]
binds: all assays above
